Results taken from patent publication US20230014151A1, “COMBINATION ANTIVIRAL THERAPY FOR MEASLES” (The Trustees of Columbia University in the City of New York, priority 2019, published 2023).

T1: measles virus (MeV) fusion protein F, wild type, expressed on cells (measles virus), Q786F3
T1 chain: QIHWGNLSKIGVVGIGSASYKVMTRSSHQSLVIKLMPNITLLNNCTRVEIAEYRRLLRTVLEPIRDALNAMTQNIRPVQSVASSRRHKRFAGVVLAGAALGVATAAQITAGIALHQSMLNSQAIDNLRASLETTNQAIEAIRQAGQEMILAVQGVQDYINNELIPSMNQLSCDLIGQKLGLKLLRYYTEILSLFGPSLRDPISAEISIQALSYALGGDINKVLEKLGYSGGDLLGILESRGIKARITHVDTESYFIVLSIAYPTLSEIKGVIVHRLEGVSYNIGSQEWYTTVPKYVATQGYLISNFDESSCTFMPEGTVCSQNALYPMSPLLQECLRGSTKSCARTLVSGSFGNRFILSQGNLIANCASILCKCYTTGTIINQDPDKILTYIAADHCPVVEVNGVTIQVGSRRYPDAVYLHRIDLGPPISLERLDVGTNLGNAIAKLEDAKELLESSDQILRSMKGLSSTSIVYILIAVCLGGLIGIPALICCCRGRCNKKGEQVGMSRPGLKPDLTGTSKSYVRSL

B1: [FIP]2-peg11 (no GSGSG) (peptide)
peptide: FFGC
modifications: not checked
B2: [HRC450-485-peg4]2-chol (peptide)
peptide: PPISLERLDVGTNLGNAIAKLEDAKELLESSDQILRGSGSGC
modifications: not checked
B3: [FIP-peg4]2-chol (peptide)
peptide: FFGGSGSGC
modifications: not checked
B4: [FIP-peg4]2-chol (no GSGSG) (peptide)
peptide: FFGC
modifications: not checked
B5: [FIP-HRC450-485] peg24 chol (peptide)
peptide: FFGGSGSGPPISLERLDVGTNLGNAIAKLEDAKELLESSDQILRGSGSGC
modifications: not checked
B6: [FIP-HRC450-485] (no GSGSG) peg24 chol (peptide)
peptide: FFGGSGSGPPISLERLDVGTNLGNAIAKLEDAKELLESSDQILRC
modifications: not checked
B7: FIP-HRC450-485, Monomer N-Maleimide (peptide)
peptide: B5 peptide
modifications: not checked
B8: FIP-HRC450-485 (no GSGSG), Monomer N-Maleimide (peptide)
peptide: B6 peptide
modifications: not checked
B9: FIP (no GSGSG), Monomer N-Maleimide (peptide)
peptide: FFGC
modifications: not checked
B10: FIP-HRC450-485-chol (no GSGSG) (peptide)
peptide: B6 peptide
modifications: not checked
B11: FIP-chol (no GSGSG) (peptide)
peptide: FFGC
modifications: not checked
B12: FIP-HRC450-485-peg4-chol (peptide)
peptide: B5 peptide
modifications: not checked
B13: FIP-peg4-chol (no GSGSG) (peptide)
peptide: FFGC
modifications: not checked
B14: [FIP-HRC450-485]2-peg11 (no GSGSG) (peptide)
peptide: B6 peptide
modifications: not checked
B15: [FIP]2-peg11 (peptide)
peptide: FFGGSGSGC
modifications: not checked

Molecular target: T1, measles virus (MeV) fusion protein F, …
Assay: cell-based or functional assay

Binder	IC50, beta-galactosidase complementation-based fusion assay, CD150 target cells [nM]	IC90, beta-galactosidase complementation-based fusion assay, CD150 target cells [nM]
B1	> 600	> 1000
B2	100	–
B3	510	–
B4	> 700	> 1000
B5	–	> 900
B6	480	> 900
B7	> 1000	> 1000
B8	> 1000	> 1000
B9	> 1000	> 1000
B10	70.8	–
B11	> 1000	> 1000
B12	–	> 700
B13	> 400	> 900
B14	516	> 1000
B15	> 1000	> 1000
